Pooled drug test results. Numbers come from NIAID ChemDB, via PubChem.

Common to all: target-level tests; agent: Hepatitis C virus; protein: HCV NS3 protease

ICn is the concentration giving n% inhibition.

SMILES	tested at	measure	value
CCC[C@H](NC(=O)[C@H](CC1CCCCC1)NC(=O)[C@@H](NC(=O)[C@H](CC(C)C)NC(=O)[C@@H](CCC(=O)O)NC(=O)[C@H](CCC(=O)O)NC(=O)CCC(=O)O)[C@@H](C)CC)C(=O)O		Ki	0.22 µM
CC(C)(C)OC(=O)NC1CCCCC/C=C\C2CC2(C(=O)O)NC(=O)C2CCCN2C1=O		IC50	400 µM
CC[C@H](C)[C@H](NC(=O)[C@H](CC(C)C)NC(=O)[C@@H](CCC(=O)O)NC(=O)[C@H](CCC(=O)O)NC(=O)CCC(=O)O)C(=O)N[C@@H](CC1CCCCC1)C(=O)NC1(C(=O)O)CC1		Ki	0.091 µM
CCC[C@H](NC(=O)[C@@H]1CCCN1C(=O)[C@@H](NC(=O)[C@@H](NC(=O)[C@@H](CC(=O)O)NC(=O)[C@H](CC(=O)O)NC(C)=O)[C@@H](C)CC)C(C)C)C(N)=O		IC50	1.1 µM
CC[C@H](NC(=O)[C@@H](NC(=O)[C@@H](NC(=O)[C@H](CC(C)C)NC(=O)[C@@H](CCC(=O)O)NC(=O)[C@H](CC(=O)O)NC(C)=O)[C@@H](C)CC)C1CCCCC1)C(=O)/C=C/CCCC(C)C		IC50	1–10 µM
CC(=O)N[C@H](C(=O)N[C@H](C(=O)N1CCC[C@H]1C(=O)NC1(C(=O)O)CC1)C(C)C)C1CCCCC1		IC50	>1000 µM
CCCC(=O)[C@H](CC)NC(=O)[C@@H](NC(=O)[C@@H](NC(=O)[C@H](CC(C)C)NC(=O)[C@@H](CCC(=O)O)NC(=O)[C@H](CC(=O)O)NC(C)=O)[C@@H](C)CC)C1CCCCC1		IC50	1–10 µM
CSCC[C@H](NC(=O)[C@H](CCC(=O)O)NC(=O)[C@@H](N)CC(=O)O)C(=O)N[C@@H](CCC(=O)O)C(=O)N[C@@H](CCC(=O)O)C(=O)N[C@@H](CS)C(N)=O		Ki	80 µM
C/C=C/C(=O)[C@H](CC)NC(=O)[C@@H](NC(=O)[C@@H](NC(=O)[C@H](CC(C)C)NC(=O)[C@@H](CCC(=O)O)NC(=O)[C@H](CC(=O)O)NC(C)=O)[C@@H](C)CC)C1CCCCC1	1 µM	inhibition	54%
CC[C@H](C)[C@H](NC(=O)[C@H](CC(C)C)NC(=O)[C@@H](CCC(=O)O)NC(=O)CCC(=O)O)C(=O)N[C@@H](CC1CCCCC1)C(=O)NC1(C(=O)C(F)(F)C(F)(F)F)CC1		Ki	83 µM
CC[C@H](NC(=O)[C@@H](NC(=O)[C@@H](NC(=O)[C@H](CC(C)C)NC(=O)[C@@H](CCC(=O)O)NC(=O)[C@H](CC(=O)O)NC(C)=O)[C@@H](C)CC)C1CCCCC1)C(O)/C=C/c1nccs1	10 µM	inhibition	47%
COc1ccc2c(O[C@@H]3CC4C(=O)NC5(C(=O)O)CC5/C=C\CCCCCC(NC(=O)OC(C)(C)C)C(=O)N4C3)ccnc2c1		IC50	0.024 µM
CCC[C@H](NC(=O)[C@H](CC1CCCCC1)NC(=O)[C@@H](NC(=O)[C@H](CC(C)C)NC(=O)[C@@H](CCC(=O)O)NC(=O)CCC(=O)O)[C@@H](C)CC)c1nn[nH]n1		Ki	5.3 µM
CC[C@H](NC(=O)[C@@H](NC(=O)[C@@H](NC(=O)[C@H](CC(C)C)NC(=O)[C@@H](CCC(=O)O)NC(=O)[C@H](CC(=O)O)NC(C)=O)[C@@H](C)CC)C1CCCCC1)C(=O)CCCCCC(C)C	10 µM	inhibition	91%
CCC(NC(=O)[C@H](CC1CCCCC1)NC(=O)[C@@H](NC(=O)[C@H](CC(C)C)NC(=O)[C@@H](CCC(=O)O)NC(=O)CCC(=O)O)[C@@H](C)CC)C(=O)C(F)(F)C(F)(F)F		Ki	2 µM
CC[C@H](NC(=O)[C@@H](NC(=O)[C@@H](NC(=O)[C@H](CC(=O)O)NC(=O)[C@@H](N)CCC(=O)O)C(C)C)C(C)C)C(=O)N[C@@H](CS)C(=O)O		Ki	1.4 µM
CC[C@H](NC(=O)[C@@H](NC(=O)[C@@H](NC(=O)[C@H](CC(C)C)NC(=O)[C@@H](CCC(=O)O)NC(=O)[C@H](CC(=O)O)NC(C)=O)[C@@H](C)CC)C1CCCCC1)C(O)/C=C/c1ccc(OC)cc1	10 µM	inhibition	7%
CCCC[C@H](NC(=O)[C@@H]1Cc2ccccc2CN1C(=O)[C@H](CS)NC(=O)[C@@H](N)CC(C)C)C(=O)N[C@@H](CO)C(=O)N[C@@H](Cc1ccc(O)cc1)C(=O)O		Ki	>1000 µM

Lines come from different laboratories, so protocols vary. Percent inhibition refers to the dose given; in toxicity tests it is the harm to the cells. Blank or dashed fields: not listed here. a–b is a range or a potency band.